Negatives hold for the conditions tested. The exact form of at least one protein or probe is not confirmed. The comparison behind a weaker result is the experiment's own reference, which may not be listed here. At least one verdict rests on a figure or table, not on a statement of the authors.
Target: PrfA (Listeria monocytogenes) (UniProt P22262)
Assay: BLI
Conditions: residues 1-237

By UniProt entry, the sequences of proteins in these tests, tags left out.
UniProt P22262, whole entry: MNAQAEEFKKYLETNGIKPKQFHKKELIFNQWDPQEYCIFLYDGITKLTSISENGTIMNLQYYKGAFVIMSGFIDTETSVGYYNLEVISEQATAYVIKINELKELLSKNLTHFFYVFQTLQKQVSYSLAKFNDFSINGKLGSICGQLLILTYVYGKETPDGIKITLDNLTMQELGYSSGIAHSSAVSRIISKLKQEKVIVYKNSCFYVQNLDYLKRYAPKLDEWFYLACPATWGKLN

“TGTCCCTTTATCGTCGTTAACAAATGTTAATGCCTCGACA (double strand) [PplcA/Phly PrfA box DNA]”: binds (5 mM GSH); binds (no peptide, no GSH); binds more weakly (peptide EVFL, PrfA:peptide 1:100). “TGTCCCTTTATCGTCGTTAACAAATGTTAATGCCTCGACA (double strand) [PplcA/Phly PrfA box DNA]”: no binding (peptide LL, PrfA:peptide 1:100, DNA binding completely blocked); binds more weakly (peptide RGLL, PrfA:peptide 1:100); binds more weakly (peptide STLL, PrfA:peptide 1:100). “TGTCCCTTTATCGTCGTTAACAAATGTTAATGCCTCGACA (double strand) [PplcA/Phly PrfA box DNA]”: binds more weakly (peptide TEPL, PrfA:peptide 1:100); binds more weakly (peptide TKPR, PrfA:peptide 1:100).

Reference: publication doi:10.1101/2024.05.24.595734
